Measured values from several laboratories, pooled; numbers as filed in NIAID ChemDB.

Shared fields: cytotoxicity tests; cell line: HepG2; measure: CC50

a–b is a range or a potency band.

compound	read by	value
O=C1c2ccccc2C(=O)N1CCC(=O)N1c2ccccc2Sc2ccccc21	resazurin	>32 µg/mL
C/C=C\C(=O)O[C@H]1c2c(ccc3c(C)cc(=O)oc23)OC(C)(C)[C@H]1OC(=O)/C=C\C	MTT	15.62 µM
C/C(=C\CP(=O)(OCOC(=O)OC(C)C)OCOC(=O)OC(C)C)Cn1cc(C2CC2)nn1	absorbance	>100 µM
c1ccc(OCCCN2c3ccccc3Sc3ccccc32)cc1	resazurin	>32 µg/mL
Clc1cccc2ccc(N3CCC(c4nc(-c5cccnc5)no4)CC3)nc12	MTS	50–100 µM
Cc1c(Cc2ccccc2Br)cnc2nc(N)nc(N)c12	resazurin / fluorescence	40 µM
NC[C@H]1OB(O)c2c3c(cc(Br)c21)OCCO3	radiometric	39.5 µM
COc1ccc2nc3cc(Cl)ccc3c(NCCCCNC(=O)/C=C/c3ccc(C(C)C)cc3)c2c1	MTT	4.1 µM
COc1cc(OC)cc(-c2noc(C3CCN(c4ccc5cccc(OC)c5n4)CC3)n2)c1	MTS	>100 µM
O=C(c1c(F)cccc1F)N1CCN(c2cc(N3CCCCCC3)c(F)cc2[N+](=O)[O-])CC1	luminescence	>50 µM
COc1ncc2ccc(=O)n(CCN[C@@H]3CC[C@@H]4[C@@H](C3)OC(=O)N4c3ccc4c(n3)NC(=O)CO4)c2n1	luminescence	>100 µg/mL
COc1ccnc2[nH]cc(C(=O)C(=O)N3CCN(C(=O)c4ccccc4)C[C@H]3C)c12	-	>225 µM
Cc1cc(NC(=O)c2c(C)c(C(=O)C(=O)NC3(C)CCCN(C(=O)Nc4ccc(F)c(F)c4)C3)n(C)c2C)ccc1F	MTT	>30 µM
Clc1ccc2c(NCCCCNc3nc(Nc4ccccc4)nc(N4CCOCC4)n3)ccnc2c1	-	33.2 µM
CC(C)C[C@@H]1NC(=O)[C@H](Cc2c[nH]c3ccccc23)NC(=O)[C@@H](CCCCN)NC(=O)[C@H](CC(N)=O)NC(=O)[C@H](C(C)C)NC(=O)[C@@H](CC(C)C)NC1=O	MTT	>30 µM
CC1(C)CCc2c(C(=O)OCc3ccc(Cl)cc3)c(O)c3ccccc3c2O1	MTT	50 µg/mL
CCC1(NC(=O)C(=O)c2c(C)c(C(=O)Nc3ccc(F)c(C)c3)c(C)n2C)CCN(c2nccs2)CC1	MTT	5–30 µM
Nc1c(C(=O)N2CCCC2)sc2nc(-c3ccccc3)ccc12	luminescence	>100 µM
Cc1ccc(S(=O)(=O)c2cc3cc(F)ccc3c3sc(C)nc23)cc1	MTT	>125 µM
CCCN(Cc1ccc(OCC(=O)OCC)cc1)C(=O)c1ccc(-c2ccc3c(c2)OCO3)cc1	-	>20 µM
C/C(=C\CP(=O)(OCOC(=O)OC(C)C)OCOC(=O)OC(C)C)Cn1cc(-c2ccc([N+](=O)[O-])cc2)nn1	absorbance	85.3 µg/mL
CC(C)N(Cc1cccc(OCCCCCC(=O)OC(=O)O)c1)C(=O)c1ccc(-c2c[nH]c3ccccc23)cc1	-	>20 µM
CCOc1ccc(Br)c2c1B(O)O[C@@H]2CN	radiometric	30.5 µM
COc1cccc2ccc(N3CCC(c4nc(-c5ccc(N6CCCCC6)nc5)no4)CC3)nc12	MTS	>100 µM
Cc1cc(=O)oc2c3c(ccc12)OC(C)(C)[C@@H](OC(=O)c1ccc(Cl)cc1Cl)[C@H]3OC(=O)c1ccc(Cl)cc1Cl	MTT	86.97 µM
N#Cc1ccc(Oc2cc(Nc3ccc(C#N)cn3)nc3ccccc23)cc1	MTT	39.96 µg/mL
O=C1COc2ccc(N3C(=O)O[C@@H]4C[C@@H](NCCn5c(=O)ccc6ccc(OCCO)nc65)CC[C@@H]43)nc2N1	luminescence	>100 µg/mL
CC(C)C[C@@H]1NC(=O)[C@H](Cc2c[nH]c3ccccc23)NC(=O)[C@@H](CCCCN)NC(=O)[C@H](CCCCN)NC(=O)[C@H](C(C)C)NC(=O)[C@@H](CC(C)C)NC1=O	MTT	>30 µM
OCc1cn(-c2ccc(F)cc2)nc1-c1cc(F)c(Cl)cc1Cl	luminescence	>100 µM
CC1(C)CCc2c(C(=O)OCc3ccc([N+](=O)[O-])cc3)c(O)c3ccccc3c2O1	MTT	12.5 µg/mL
CCc1ccc(Nc2nc(NCCCCNc3ccnc4cc(Cl)ccc34)nc(N3CCOCC3)n2)cc1	-	31.8 µM
CC(C)N(Cc1ccc(OCC(=O)O)cc1)C(=O)c1ccc(-c2ccc3c(c2)OCO3)cc1	-	>20 µM
CC(C)C[C@@H]1NC(=O)[C@@H](Cc2c[nH]c3ccccc23)NC(=O)CNC(=O)[C@@H](CC(N)=O)NC(=O)[C@H](C(C)C)NC(=O)[C@@H](CC(C)C)NC1=O	MTT	>30 µM
Nc1ncnc2c1c(-c1ccoc1)cn2[C@@H]1O[C@H](CO)[C@@H](O)C1(F)F	XTT	>10 µM
C/C(=C\CP(=O)(OCOC(=O)OC(C)C)OCOC(=O)OC(C)C)Cn1cc(C(N)=O)nn1	absorbance	>100 µM
COc1cccc2ccc(N3CCC(c4nc(-c5cccc(C(F)(F)F)c5)no4)CC3)nc12	MTS	>100 µM
CC(C)C[C@@H]1NC(=O)[C@H](Cc2c[nH]c3ccccc23)NC(=O)[C@H](CCCN=C(N)N)NC(=O)[C@H](CCCCN)NC(=O)[C@H](C(C)C)NC(=O)[C@@H](CC(C)C)NC1=O	MTT	>30 µM
COc1cccc2ccc(N3CCC(c4nc(-c5ccc(C(F)(F)F)nc5)no4)CC3)nc12	MTS	20–50 µM
N#Cc1ccc(Nc2cc(Oc3ccc(C#N)cc3)c3ccccc3n2)cc1	MTT	≥50 µg/mL
COc1ccc(-c2nc3c(N)nc(N)nc3nc2C(C)C)cc1	resazurin / fluorescence	>50 µM
COc1ccc2ccc(=O)n(CCN[C@H]3CC[C@H]4[C@@H](C3)OC(=O)N4c3ccc4c(n3)NC(=O)CO4)c2n1	luminescence	10–100 µg/mL
CCOC(=O)/C=C1\NCCc2cc3c(cc21)OCO3	-	<7.5 µM
C/C=C/C=C/c1nc2ccc(OC)cc2n2cccc12	MTT / absorbance	8.7 µM
CC1(C)CCc2c(C(=O)Oc3ccc(I)cc3)c(O)c3ccccc3c2O1	MTT	100 µg/mL
CCC(C)[C@@H]1NC(=O)[C@@H](C(C)CC)NC(=O)[C@H](CC(C)C)NC(=O)[C@H](Cc2c[nH]c3ccccc23)NC(=O)CNC(=O)[C@H](CC(N)=O)NC1=O	MTT	>30 µM
O=C1C(=O)c2ccccc2C(O)=C1C1CCC(c2ccc(Cl)cc2)CC1	-	>10 µM
CCCCCCCC(=O)NCc1cn(C/C(C)=C/CP(=O)(OCOC(=O)OC(C)C)OCOC(=O)OC(C)C)nn1	absorbance	57.3 µM
CCCOc1ccc(C(=O)Nc2sc(C)c(C)c2C(N)=O)cc1	luminescence	>100 µM
CCC1(NC(=O)C(=O)c2c(C)c(C(=O)Nc3ccc(F)c(C)c3)c(C)n2C)CCN(C(C)=O)CC1	MTT	>30 µM
CCc1ccc(Nc2nc(NCCCNc3ccnc4cc(Cl)ccc34)nc(N3CCOCC3)n2)cc1	-	11.5 µM
Cc1nc2c(S(=O)(=O)c3ccccc3)cc3ccccc3c2s1	MTT	>125 µM
CCN(CC)CCCC(C)Nc1c2ccc(Cl)cc2nc2ccc(OC)cc12	MTT	7.4 µM
CC(C)C[C@@H]1NC(=O)[C@H](Cc2c[nH]c3ccccc23)NC(=O)[C@H]2CCCN2C(=O)[C@H](CCCCN)NC(=O)[C@H](C(C)C)NC(=O)[C@@H](CC(C)C)NC1=O	MTT	>30 µM
COc1ccc2nc3cc(Cl)ccc3c(NCCCCNC(=O)/C=C/c3ccc(C)cc3)c2c1	MTT	8.6 µM
COC(=O)c1c2c(c3ccccc3c1OC(C)=O)OC(C)(C)CC2	MTT	25 µg/mL
Cc1nc2c(S(=O)(=O)c3ccccc3)cc3cc(F)ccc3c2s1	MTT	>125 µM
Nc1ncnc2c1c(-c1ccsc1)cn2[C@@H]1O[C@H](CO)[C@@H](O)[C@H]1F	XTT	>10 µM
CCCNCc1cccc(OCCCCCC(=O)OCC)c1	-	>20 µM
COc1cccc2ccc(N3CCC(c4nc(-c5ccc(OC(F)(F)F)cc5)no4)CC3)nc12	MTS	>100 µM
Cc1cc(NC(=O)c2c(C)c(C(=O)C(=O)N[C@H]3CN[C@H](C(=O)O)C3)n(C)c2C)ccc1F	MTT	>30 µM
NC[C@H]1OB(O)c2c3c(cc(Cl)c21)OCCO3	radiometric	82.8 µM
Cc1cc(=O)oc2c3c(ccc12)OC(C)(C)[C@@H](OC(=O)CC(C)C)[C@H]3OC(=O)CC(C)C	MTT	78.23 µM
C/C(=C\CP(=O)(OCOC(=O)OC(C)C)OCOC(=O)OC(C)C)Cn1cc(C=O)nn1	absorbance	>100 µM
CCOC(OCC)C1=NCCc2cc(OC)c(OC)cc21	-	<7.5 µM
CCCc1ccc(-c2cn(C/C(C)=C/CP(=O)(OCOC(=O)OC(C)C)OCOC(=O)OC(C)C)nn2)cc1	absorbance	18.3 µM
C/C=C/C=C/c1nc2ccccc2n2cccc12	MTT / absorbance	10.3 µM
CCCC=C1c2ccccc2Sc2ccccc21	resazurin	14 µg/mL
COc1ccc(Br)c2c1B(O)O[C@@H]2CN	radiometric	97 µM
Cc1ccc2cc(S(=O)(=O)c3ccccc3)c3nc(C)sc3c2c1	MTT	26 µM
c1cncc(-c2noc(C3CCN(c4ccc5cc(-c6ccncc6)ccc5n4)CC3)n2)c1	MTS	>100 µM
Nc1ncnc2c1c(-c1cccs1)cn2[C@H]1O[C@H](CO)[C@@H](O)C1(F)F	XTT	>10 µM
CCC1(NC(=O)C(=O)c2c(C)c(C(=O)Nc3ccc(F)c(C)c3)c(C)n2C)CCC(O)CC1	MTT	>30 µM
CC(C)c1ccc2[nH]c3cc(C#N)c(=O)oc3c2c1	visual reading / absorbance	8 µg/mL
COc1ccc(OCC(=O)Nc2sc3c(c2C(=O)NC2CCS(=O)(=O)C2)CCCC3)cc1	luminescence	>100 µM
CC1(C)CCc2c(C(=O)OCc3ccccc3)c(O)c3ccccc3c2O1	MTT	25 µg/mL
CCCCCN1C2=C(Sc3ccccc31)C(=O)CCC2	resazurin	>32 µg/mL
CC(C)C[C@@H]1NC(=O)[C@H](Cc2c[nH]c3ccccc23)NC(=O)[C@@H](CCCCN)NC(=O)[C@H](CCC(N)=O)NC(=O)[C@H](CC(C)C)NC(=O)[C@@H](CC(C)C)NC1=O	MTT	>30 µM
Cc1ccc(NC(=O)NC2c3ccccc3Sc3ccccc32)cc1	resazurin	>32 µg/mL
CC(C)N(Cc1cccc(OCCCCCC(=O)OC(=O)O)c1)C(=O)c1ccc(-c2cccc(Oc3ccccc3)c2)cc1	-	<13.5 µM
COc1ccc(C(=O)O[C@H]2c3c(ccc4c(C)cc(=O)oc34)OC(C)(C)[C@H]2OC(=O)c2ccc(OC)c(OC)c2)cc1OC	MTT	67.54 µM
CN(C)CCCN=C(c1ccccc1)N(CCCN(C)C)c1ccnc2cc(Cl)ccc12	MTT	12.02 µg/mL
CCCC/C=C/C=C/c1nc2ccc(OC)cc2n2cccc12	MTT / absorbance	22.9 µM
Cc1ccccc1C(=O)O[C@H]1c2c(ccc3c(C)cc(=O)oc23)OC(C)(C)[C@H]1OC(=O)c1ccccc1C	MTT	22.69 µM
Cc1cc(NC(=O)c2c(C)c(C(=O)C(=O)NC3(C)CC(O)C3)n(C)c2C(C)C)ccc1F	MTT	>30 µM
CC(C)(C)C(=O)SCCOP(=O)(OCCOCn1cnc2c(=O)[nH]c(N)nc21)OCCSC(=O)C(C)(C)C	-	1600 µM
CCNc1ccnc2sc(C(=O)Cc3ccccc3)c(N)c12	luminescence	61 µM

A second listing of 5 rows from above:

compound,read by,value
CCCOc1ccc(C(=O)Nc2sc(C)c(C)c2C(N)=O)cc1,luminescence,>100 µM
COc1cc(OC)cc(-c2noc(C3CCN(c4ccc5cccc(OC)c5n4)CC3)n2)c1,MTS,>100 µM
COc1ccc(C(=O)O[C@H]2c3c(ccc4c(C)cc(=O)oc34)OC(C)(C)[C@H]2OC(=O)c2ccc(OC)c(OC)c2)cc1OC,MTT,67.54 µM
CCOC(=O)/C=C1\NCCc2cc3c(cc21)OCO3,-,<7.5 µM
CCCc1ccc(-c2cn(C/C(C)=C/CP(=O)(OCOC(=O)OC(C)C)OCOC(=O)OC(C)C)nn2)cc1,absorbance,18.3 µM

An empty or dashed field is not shown. Neighbouring rows are from separate reports. CCn: concentration that lowers growth or viability of the cells by n%.